Measured values from several laboratories, pooled; numbers as filed in NIAID ChemDB.

All rows: whole-cell or culture tests; agent: HIV-1

Two numbers with a dash give a range or band. An empty or dashed field is not shown. ECn is the concentration giving n% inhibition of infection, replication or growth. Lines come from different laboratories, so protocols vary.

structure,strain or isolate,conditions,endpoint,read by,cells,mutations,value
Cc1nc2c(c(C)c(C)n2Cc2cccnc2F)c(-c2ccc(Cl)cc2)c1[C@H](OC(C)(C)C)C(=O)O,IIIB,-,EC50,MTT,MT-4,-,0.00549 µM
CC(C)C1=C2[C@H]3CC[C@@H]4[C@@]5(C)CC[C@H](OC(=O)CC(C)(C)C(=O)O)C(C)(C)[C@@H]5CC[C@@]4(C)[C@]3(C)CC[C@@]2(NC(=O)CCCN2CCCC2)CC1=O,IIIB,30% human serum,EC50,RT activity,MT-2,-,<0.199 µM
CC(C)=CCOc1cc(NC(=S)c2ccoc2C)ccc1Cl,Pyridinone-resistant (RT Y181C K103N),-,EC50,cytopathic effect / XTT,CEM + CEM-SS,RT-K103N Y181C,>2 µM
Cc1occc1C(=S)Nc1ccc(Cl)c(/C=N/OC(C)(C)C)c1,IIIB,-,EC50,syncytia,CEM,-,0.142 µM
CCOCn1c(Sc2cc(C)cc(C)c2)c(CC)c(=O)[nH]c1=S,IIIB,-,EC50,syncytia,CEM,RT-Y188H,8.6 µM
COc1cccc(CNC(=O)c2ccc(C3=NN4C(C(=O)c5ccc(F)cc5)Oc5ccccc5C4C3)cc2)c1,LAI,-,EC50,GFP / reporter gene,MT-4,-,1–10 µM
O=P(O)(O)OP(=O)(O)OP(=O)(O)OP(=O)(O)OP(=O)(O)OP(=O)(O)OP(=O)(O)OP(=O)(O)OP(=O)(O)OP(=O)(O)OP(=O)(O)OP(=O)(O)OP(=O)(O)OP(=O)(O)OP(=O)(O)O,IIIB,-,EC50,cytopathic effect / MTT,CEM,-,<33.3 µg/mL
CCC1=C(C(=O)Nc2ccc(Cl)c(C(=O)OCC(C)C)c2)SCCO1,IIIB,-,EC50,syncytia,CEM,-,0.05 µg/mL
Nc1nc(=O)n([C@H]2C=C[C@@H](CO)O2)cc1F,XM-Q151M,-,EC90,p24,PBMC,RT-A62V V75I F77C F116Y Q151M,26 µM
O=C1NC(=O)c2cc([N+](=O)[O-])c(Sc3c(Cl)cccc3Cl)cc21,-,-,EC50,luminescence,-,-,70 µM
COc1ccnc2[nH]cc(C(=O)C(=O)N3CCN(C(=O)c4ccccc4)C[C@H]3C)c12,PVO,-,EC50,luciferase,TZM-bl,-,0.002 µM
Cc1nc2c(c(C)c(C)n2C)c(-c2ccc(Cl)cc2)c1[C@@H](OC(C)(C)C)C(=O)O,IIIB,-,EC50,MTT,MT-4,-,>99 µM
CC(C)c1c(Sc2ccccc2)n(COCc2ccccc2)c(=O)[nH]c1=O,IIIB,-,EC50,syncytia,CEM,RT-Y181I,5 µM
Cc1ccc(C[C@@H](C)[C@@H](C)Cc2ccc(C)c(C)c2)cc1C,-,pseudotyped,EC50,single cycle / luminescence,HeLa,-,42 µM
COc1ccc(OC)c(CNC(=O)c2ccc(C3=NN4C(C(=O)c5ccc(F)cc5)Oc5ccccc5C4C3)cc2)c1,LAI,-,EC50,GFP / reporter gene,MT-4,-,1–10 µM
CCc1c(Cc2ccc(OC)c(OC)c2)n(COCc2ccccc2)c(=O)[nH]c1=O,A17,-,EC50,MTT,MT-4,K103N/Y181C,>80 µM
CCOCn1c(Sc2ccccc2)c(C(C)C)c(=O)[nH]c1=S,IIIB,-,EC50,syncytia,CEM,RT-Y188H,≥30 µM
CC1=C(C(=O)Nc2cc(Cl)cc(C(=O)OC(C)C)c2)SCCO1,PYR-resistant (RT Y181C),-,EC50,syncytia,CEM,RT-Y181C,5.5 µg/mL
CC(C)c1c(Sc2ccccc2)n(COCc2ccccc2)c(=S)[nH]c1=O,IIIB,-,EC50,syncytia,CEM,Nevirapine resistant (RT Y181C),0.2 µM
CCCCOC(=O)c1cc(NC(=O)C2=C(C)OCCS2)ccc1Cl,IIIB,-,EC50,syncytia,CEM,-,0.04 µg/mL
CC=CCOc1cc(NC(=S)c2ccoc2C)ccc1OC,NL4-3,-,EC50,cytopathic effect / XTT,CEM + CEM-SS,RT-V108I,0.09 µM
CCN1c2ncc(CCOc3ccc(CC(=O)O)c4ccccc34)cc2C(=O)Nc2c(C)cc(Cl)nc21,WT,-,EC50,p24,C8166,-,<0.1 µM
CC(C)NC(=O)c1ccc(C2=NN3C(C(=O)c4ccc(F)cc4)Oc4ccccc4C3C2)cc1,LAI,-,EC50,GFP / reporter gene,MT-4,-,<1 µM
O=C(Cn1ccc(=O)[nH]c1=O)Nc1ccccn1,VB59,-,EC50,luciferase,TZM-bl,-,394 µM
Cc1occc1C(=S)Nc1ccc(Cl)c(COC(C)(C)C)c1,RF,-,EC50,cytopathic effect / XTT,CEM + CEM-SS,-,0.018 µM
CSc1ccc(C(=O)C2Oc3ccccc3C3CC(c4ccc(C(=O)NC5CCCC5)cc4)=NN23)cc1,LAI,-,EC50,GFP / reporter gene,MT-4,-,<1 µM
CCc1c(Cc2cc(C)cc(C)c2)n(COCCO)c(=O)[nH]c1=O,IIIB,-,EC50,syncytia,CEM,RT-E138K,0.2 µM
O=C(CCC(=O)Nc1ccc([N+](=O)[O-])cn1)Nc1ccc([N+](=O)[O-])cn1,IIIB,-,EC50,luciferase,TZM-bl,-,15.7 µM
CCc1c(Cc2ccccc2)n(COCC2CC2)c(=O)[nH]c1=O,A17,-,EC50,MTT,MT-4,K103N/Y181C,>100 µM
CC(C)C1=C2C3CCC4[C@@]5(C)CC[C@H](OC(=O)CC(C)(C)C(=O)O)C(C)(C)C5CC[C@@]4(C)[C@]3(C)CC[C@@]2(NC(=O)c2nnc(C(C)C)o2)CC1=O,IIIB,30% human serum,EC50,RT activity,MT-2,-,<0.199 µM
Cc1nc2ccccc2c(-c2cc(F)c3c(c2C)CCCO3)c1[C@H](OC(C)(C)C)C(=O)O,NL4-3,-,EC50,luminescence,MT-4,Q148R,0.017 µM
CC(Cc1nc(-c2ccc(O)c(O)c2)cs1)n1cc(Cl)cn1,-,-,EC50,luminescence,-,-,110 µM
CC(C)c1c(Sc2ccccc2)n(COCCO)c(=O)[nH]c1=O,IIIB,-,EC50,syncytia,CEM,Nevirapine resistant (RT Y181C),2.7 µM
CC1=C(C(=O)Nc2ccc(Cl)c(C(=O)OC3CCCC3)c2)SCCO1,PYR-resistant (RT Y181C),-,EC50,syncytia,CEM,RT-Y181C,0.26 µg/mL
O=C(NC1CCCC1)c1ccc(C2=NN3C(C(=O)c4cccc(Br)c4)Oc4ccccc4C3C2)cc1,LAI,-,EC50,GFP / reporter gene,MT-4,-,<1 µM
Cc1nc2c(c(C)c(C)n2Cc2cocn2)c(-c2ccc(Cl)cc2)c1[C@H](OC(C)(C)C)C(=O)O,IIIB,-,EC50,MTT,MT-4,-,0.00975 µM
COCCOC(=O)c1cc(NC(=O)C2=C(C)OCCS2)ccc1Cl,TIBO-resistant (RT L100I),-,EC50,syncytia,CEM,RT-L100I,7.5 µg/mL
CC1(C)CC=C(c2cn(-c3nccc(C(=O)NC4CCC(N5CC6CCC(C5)O6)CC4)n3)c3ccc(F)c([C@H](OC(C)(C)C)C(=O)O)c23)CC1,NL4-3,-,EC50,luminescence,MT-4,T124S/T125A,0.0055 µM
CCc1c(Cc2ccc(C)cc2)n(COCC2CC2)c(=O)[nH]c1=O,EFVR,-,EC50,MTT,MT-4,K103R/V179D/P225H,>100 µM
CC(C)C1=C2C3CCC4[C@@]5(C)CC[C@H](OC(=O)CC(C)(C)C(=O)O)C(C)(C)C5CC[C@@]4(C)[C@]3(C)CC[C@@]2(NC(=O)OCc2ccccc2)CC1=O,IIIB,30% human serum,EC50,RT activity,MT-2,-,<0.199 µM
Cc1nc2c(c(C)c(C)n2Cc2cnccn2)c(-c2ccc(Cl)cc2)c1[C@H](OC(C)(C)C)C(=O)O,IIIB,-,EC50,MTT,MT-4,-,0.00466 µM
CCN1c2ncc(CCOc3ccc(C(=O)O)c4c3CCN(C(=O)OC(C)(C)C)C4)cc2C(=O)N(C)c2cccnc21,WT,-,EC50,p24,C8166,-,<0.1 µM
CC(C)O/N=C/c1cc(NC(=S)OC(C)C)ccc1Cl,IIIB,-,EC50,cytopathic effect / XTT,CEM + CEM-SS,-,0.1 µM
Cc1cn([C@H]2C=C[C@@H](CO)O2)c(=O)[nH]c1=O,XM-AZT-resistant,-,EC90,p24,MT-4,RT-M41L D67N K70R T215Y K219Q,0.7 µM
Cc1occc1C(=S)Nc1ccc(Cl)c(/C=N/OC(C)(C)C)c1,NL4-3,-,EC50,cytopathic effect / XTT,CEM + CEM-SS,RT-Y181C,0.5 µM
COc1ccnc2[nH]cc(C(=O)C(=O)N3C4CC3CN(C(=O)c3ccccc3)C4)c12,PVO,-,EC50,luciferase,TZM-bl,-,175 µM
CC1=C(C(=O)Nc2cccc(C(=O)OC(C)C)c2)SCCO1,TIBO-resistant (RT L100I),-,EC50,syncytia,CEM,RT-L100I,9 µg/mL
CC(C)C1=C2C3CCC4[C@@]5(C)CC[C@H](OC(=O)CC(C)(C)C(=O)O)C(C)(C)C5CC[C@@]4(C)[C@]3(C)CC[C@@]2(NC(=O)N[C@H](C)c2ccccc2)CC1=O,IIIB,30% human serum,EC50,RT activity,MT-2,-,<0.199 µM
COC(=O)c1cc(NC(=O)C2=C(C)OCCS2)ccc1Cl,Nevirapine-resistant (RT V106A),-,EC50,syncytia,CEM,RT-V106A,>10 µg/mL
CC(C)C1=C2[C@H]3CC[C@@H]4[C@@]5(C)CC[C@H](OC(=O)CC(C)(C)C(=O)O)C(C)(C)[C@@H]5CC[C@@]4(C)[C@]3(C)CC[C@@]2(NC(=O)NCc2ccccc2)CC1=O,IIIB,30% human serum,EC50,RT activity,MT-2,-,<0.199 µM
CC(C)CC(C)NC(=O)c1ccc(C2=NN3C(C(=O)c4ccc(F)cc4)Oc4ccccc4C3C2)cc1,LAI,-,EC50,GFP / reporter gene,MT-4,-,<1 µM
CCN1c2ncc(CCOc3ccc(C(=O)O)c4c3CCC4)cc2C(=O)N(C)c2cccnc21,WT,-,EC50,p24,C8166,-,<0.1 µM
C=CCO/N=C/c1cc(NC(=S)c2ccoc2C)ccc1Cl,NL4-3,-,EC50,cytopathic effect / XTT,CEM + CEM-SS,RT-A98G,0.4 µM
CC(C)=CCOc1cc(NC(=S)c2ccsc2C)ccc1Cl,SK1,-,EC50,cytopathic effect / XTT,CEM + CEM-SS,-,0.003 µM
CCc1c(Sc2cc(C)cc(C)c2)n(COCc2ccccc2)c(=O)[nH]c1=O,IIIB,-,EC50,syncytia,CEM,RT-E138K,0.009 µM
CC1=C(C(=O)Nc2ccc(Cl)c(C(=O)OC3CCCCC3)c2)SCCO1,Nevirapine-resistant (RT V106A),-,EC50,syncytia,CEM,RT-V106A,5 µg/mL
Cc1occc1C(=S)Nc1ccc(Cl)c(C(=O)OCC(C)C)c1,RF,-,EC50,cytopathic effect / XTT,CEM + CEM-SS,-,0.012 µM
CCc1c(Cc2cc(C)cc(C)c2)n(COCCCc2ccccc2)c(=O)[nH]c1=O,N119,-,EC50,MTT,MT-4,Y181C,8.8 µM
CCOCn1c(Sc2ccccc2)c(CC)c(=O)[nH]c1=S,IIIB,-,EC50,syncytia,CEM,Nevirapine resistant (RT Y181C),0.31 µM
CCOCn1c(Cc2ccc(C)cc2)c(CC)c(=O)[nH]c1=O,N119,-,EC50,MTT,MT-4,Y181C,>100 µM
CCC(=O)c1ccc(F)c([C@@H]2C[C@@H]2NC(=O)Nc2ccc(C#N)cn2)c1O,LAI,-,EC50,β-galactosidase / luminescence,TZM-bl,NNRTI-resistant (RT Y181V),0.0396 µM
C=C(C)[C@@H]1CC[C@]2(C(=O)NCCCCCCCCC(=O)N[C@H](CCC(N)=O)C(=O)OC)CC[C@]3(C)[C@H](CC[C@@H]4[C@@]5(C)CC[C@H](OC(=O)CC(C)(C)C(=O)O)C(C)(C)[C@@H]5CC[C@]43C)[C@@H]12,NL4-3,-,EC50,absorbance,-,V370A,0.158 µM
CCOCn1c(Cc2ccccc2)c(C(C)C)c(=O)[nH]c1=O,EFVR,-,EC50,MTT,MT-4,K103R/V179D/P225H,>100 µM
CC1=C(C(=O)Nc2ccc(Cl)c(C(=O)OC(C)C)c2)SCCO1,IIIB,-,EC50,syncytia,CEM,RT-V179D,0.94 µM
CCc1c(Cc2ccc(OC)c(OC)c2)n(COCC2CC2)c(=O)[nH]c1=O,IIIB,-,EC50,MTT,MT-4,-,>100 µM
Cc1cn(CC(=O)Nc2ccc(Br)cn2)c(=O)[nH]c1=O,UG070,-,EC50,luciferase,TZM-bl,-,39.43 µM
CN1CCC(NC(=O)c2ccc(C3=NN4C(C(=O)c5ccc(F)cc5)Oc5ccccc5C4C3)cc2)CC1,LAI,-,EC50,GFP / reporter gene,MT-4,-,1–10 µM
Cc1occc1C(=S)Nc1ccc(Cl)c(C(=O)OC(C)C)c1,4xAZT(RT-D67N K70R T215Y K219Q),-,EC50,cytopathic effect / XTT,CEM + CEM-SS,RT-D67N K70R T215Y K219Q,0.03 µM
CCCc1cc(=O)oc2c3c(c4c(c12)OC(C)(C)CC4)O[C@@H](C)[C@H](C)[C@@H]3O,NL4-3(RT-4XAZT+L100I),-,EC50,XTT,CEM + CEM-SS,RT-D67N K70R L100I T215Y K219Q,>20 µM
CCN1c2ncc(CCOc3ccc(C(C)CC(=O)O)c4ccccc34)cc2C(=O)N(C)c2cccnc21,WT,-,EC50,p24,C8166,-,<0.1 µM
CC1=C(C(=O)Nc2ccc(C)c(C(=O)OC(C)C)c2)SCCO1,IIIB,-,EC50,syncytia,CEM,-,0.45 µg/mL
O=C(CCC(=O)n1cnc2c([N+](=O)[O-])cccc21)n1cnc2c([N+](=O)[O-])cccc21,UG070,-,EC50,luciferase,TZM-bl,-,29.41 µM
CCOCn1c(Cc2ccccc2)c(CC)c(=O)[nH]c1=O,IIIB (TIBO 82150) (RT-L100I),-,EC50,syncytia,CEM,RT-L100I,0.08 µM
Cc1nc2c(c(C)c(C)n2CC2CC2)c(-c2cc(F)c3c(c2C)CCCO3)c1[C@H](OC(C)(C)C)C(=O)O,IIIB,-,EC50,MTT,MT-4,-,0.00668 µM
CC(C)C1=C2C3CCC4[C@@]5(C)CC[C@H](OC(=O)CC(C)(C)C(=O)O)C(C)(C)C5CC[C@@]4(C)[C@]3(C)CC[C@@]2(NC(=O)N2CCC(F)(F)CC2)CC1=O,IIIB,30% human serum,EC50,RT activity,MT-2,-,<0.199 µM
NC(=O)c1[nH]c2ccc(Cl)cc2c1S(=O)(=O)c1ccccc1,-,-,EC50,cytopathic effect / MTT,MT-4,RT-K103N Y181C,8 µM
CC(C)C1=C2C3CCC4[C@@]5(C)CC[C@H](OC(=O)CC(C)(C)C(=O)O)C(C)(C)C5CC[C@@]4(C)[C@]3(C)CC[C@@]2(NC(=O)NC2CCC(F)(F)CC2)CC1=O,IIIB,30% human serum,EC50,RT activity,MT-2,-,<0.199 µM
Cc1occc1C(=S)Nc1ccc(Cl)c(C(=O)OCC2CC2)c1,NL4-3,-,EC50,cytopathic effect / XTT,CEM + CEM-SS,RT-L100I,1.1 µM